In this test the target is Human immunodeficiency virus type 1 reverse transcriptase (Human immunodeficiency virus 1, UniProt Q72547, K103N/Y181C). Briefly: Inhibition of HIV1 reverse transcriptase K103N/Y181C double mutant using poly (A)/oligo (dT)15 as template/primer assessed as decrease in biotin-dUTP incorporation after 1 hr by ELISA.

Structures are written as SMILES.

As to `Cc1cc(C#N)cc(C)c1Oc1nc(Nc2ccc(C#N)cc2)nc(N)c1Br` [ETRAVIRINE], the IC50 turned out to be 0.02 µM.

As a reminder, the IC50 is the concentration at which inhibition is half-maximal.

These data come from ChEMBL document CHEMBL4219160, “The discovery of novel diarylpyri(mi)dine derivatives with high level activity against a wide variety of HIV-1 strains as well as against HIV-2” (Bioorg Med Chem, 2018).
